Reference: US9625458B2, “Biosensor” (priority 2002, dated 2017)
Where a chain is given by its changes, count along the chain named. Names may count otherwise.

B1: ribose BP D165C JPW4042 (conjugate, UniProt P02925 26-296, looked up, variant D165C)
Ribose import binding protein …: KDTIALVVSTLNNPFFVSLKDGAQKEADKLGYNLVVLDSQNNPAKELANVQDLTVRGTKILLINPTDSDAVGNAVKMANQANIPVITLDRQATKGEVVSHIASDNVLGGKIAGDYIAKKAGEGAKVIELQGIAGTSAARERGEGFQQAVAAHKFNVLASQPADFCRIKGLNVMQNLLTAHPDVQAVFAQNDEMALGALRALQTAGKSDVMVVGFDGTPDGEKAVNDGKLAATIAQLPDQIGAKGVETADKVLKGEKVQAKYPVDLKLVVKQ
modifications: JPW4042 dye conjugate
B2: ribose BP E192C JPW4045 (conjugate, UniProt P02925 26-296, looked up, variant E192C)
Ribose import binding protein …: B1 Ribose import binding protein … with C165D, E192C
modifications: JPW4045 dye conjugate
B3: ribose BP E192C NBD (conjugate, UniProt P02925 26-296, looked up, variant E192C)
Ribose import binding protein …: B1 Ribose import binding protein … with C165D, E192C
modifications: NBD dye conjugate
B4: ribose BP D165C Acrylodan (conjugate, UniProt P02925 26-296, looked up, variant D165C)
Ribose import binding protein …: B1 Ribose import binding protein …
modifications: acrylodan conjugate
B5: ribose BP E192C JPW4039 (conjugate, UniProt P02925 26-296, looked up, variant E192C)
Ribose import binding protein …: B1 Ribose import binding protein … with C165D, E192C
modifications: JPW4039 dye label
B6: ribose BP D165C JPW4045 (conjugate, UniProt P02925 26-296, looked up, variant D165C)
Ribose import binding protein …: B1 Ribose import binding protein …
modifications: JPW4045 label
B7: ribose BP E192C Fluorescein (conjugate, UniProt P02925 26-296, looked up, variant E192C)
Ribose import binding protein …: B1 Ribose import binding protein … with C165D, E192C
modifications: fluorescein label
B8: ribose BP E192C JPW4042 (conjugate, UniProt P02925 26-296, looked up, variant E192C)
Ribose import binding protein …: B1 Ribose import binding protein … with C165D, E192C
modifications: JPW4042 label
B9: dipeptide BP D450C JPW4042 (conjugate, UniProt P23847 29-535, looked up, variant D450C)
Dipeptide-binding protein: KTLVYCSEGSPEGFNPQLFTSGTTYDASSVPLYNRLVEFKIGTTEVIPGLAEKWEVSEDGKTYTFHLRKGVKWHDNKEFKPTRELNADDVVFSFDRQKNAQNPYHKVSGGSYEYFEGMGLPELISEVKKVDDNTVQFVLTRPEAPFLADLAMDFASILSKEYADAMMKAGTPEKLDLNPIGTGPFQLQQYQKDSRIRYKAFDGYWGTKPQIDTLVFSITPDASVRYAKLQKNECQVMPYPNPADIARMKQDKSINLMEMPGLNVGYLSYNVQKKPLDDVKVRQALTYAVNKDAIIKAVYQGAGVSAKNLIPPTMWGYNDDVQDYTYDPEKAKALLKEAGLEKGFSIDLWAMPVQRPYNPNARRMAEMIQADWAKVGVQAKIVTYEWGEYLKRAKDGEHQTVMMGWTGDNGDPDNFFATLFSCAASEQGSNYSKWCYKPFEDLIQPARATCDHNKRVELYKQAQVVMHDQAPALIIAHSTVFEPVRKEVKGYVVDPLGKHHFENVSIE
modifications: JPW4042 dye label

Assay: Fluorescence emission spectra without and with saturating ligand (wavelength shift, ΔIstd, ΔRmax)
Conditions: for λmax,apo (nm): absence of ligand
Procedure, shortened: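 Emission spectra of bPBP–fluorophore conjugates (50–1000 nM protein, 25 °C, stirred) recorded without and with saturating ligand, using fluorophore-specific excitation. Wavelength shift, ΔIstd (intensity change at the mid-point wavelength) and ΔRmax (maximal ratiometric change over enumerated band pairs, 2 nm steps, 10 nm width) derived.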

[1] = wavelength of emission maximum, saturating ligand

| Molecule | λmax,apo (nm) (wavelength of emission maximum) | λmax,sat (nm) [1] | λmax,apo (nm) (emission maximum) | λmax,sat (nm) (emission maximum, saturating ligand (ligand column)) | ΔIstd (standard intensity change, unbound vs ligand-saturated) | ΔRmax (standard ratiometric change, unbound vs ligand-saturated) |
| --- | --- | --- | --- | --- | --- | --- |
| B1 | 650 | 652 | – | – | – | – |
| B2 | 646 | 666 | – | – | – | – |
| B3 | 546 | 540 | – | – | – | – |
| B4 | 501 | 500 | – | – | – | – |
| B5 | 598 | 598 | – | – | – | – |
| B6 | 646 | 647 | – | – | – | – |
| B7 | 526 | 523 | – | – | – | – |
| B8 | 646 | 679 | – | – | – | – |
| B9 | – | – | 666 | 664 | 0.20 | 1.08 |
